Experimental data reported in patent US20230234992A1.

Molecular target: S TAGLESS EXPI293 N77825-4
Experiment: SPR

CR3022 showed a Kd of 0.059 nM.

S309 showed a Kd of 0.07 nM.
